Measurements as given in PubChem BioAssay AID602399 (Sanford-Burnham Center for Chemical Genomics, 2012).
Only a part is listed here, and it is no random draw. Some structures show a salt or complex split into parts, the way the source records it. The source made the active and inactive calls. Cut-off read from the data, not from the text of the source: active = inhibition above about 26%; inactive = the rest.

tested on: Nicotinate-nucleotide adenylyltransferase NadD (Staphylococcus aureus N315); assay: S. aureus NadD enzyme activity blockers – biochemical, colorimetric, uHTS, primary screen (AID 602399); conditions: purified NadD enzyme, colorimetric absorbance read-out; at 20 µM; hits give high values

Row | SMILES | inhibition
1 | CP(=O)(OCCOc1ccccc1)OCCOc1ccccc1 | inactive: -8.29%
2 | CP(=O)(Nc1ccc(Cl)cc1Cl)Oc1ccccc1 (stereo not given) | inactive: -5.13%
3 | CCCCCCCCCCCCCCCC1C[N+](C)(C)CCOP(C)(=O)O1 (stereo not given) | inactive: 6.02%
4 | O=C1C(O)=C([N+](=O)[O-])C(=O)C(O)=C1[N+](=O)[O-] | inactive: 3.28%
5 | Cc1cc(C)cc(OP(C)(=O)Nc2cccc(C(F)(F)F)c2)c1 (stereo not given) | inactive: -3.91%
6 | COc1ccc(OP(C)(=O)Nc2ccccc2Br)cc1 (stereo not given) | inactive: -0.622%
7 | COc1ccccc1OP(C)(=O)Nc1ccc(C)c(C)c1 (stereo not given) | inactive: 5.13%
8 | CP(=O)(OC12CC3CC(CC(C3)C1)C2)OC12CC3CC(CC(C3)C1)C2 | inactive: -1.42%
9 | CCOC(=O)c1ccc(NP(C)(=O)Oc2ccc(Cl)cc2)cc1 (stereo not given) | inactive: -5.49%
10 | CP(=O)(Nc1ccc(Cl)cc1)Oc1ccc(F)cc1 (stereo not given) | inactive: 3.19%
11 | CC(C)(C)c1ccc(OP(C)(=O)O)cc1 | inactive: 3.79%
12 | COc1ccccc1OP(C)(=O)Nc1ccccc1Br (stereo not given) | inactive: -1.22%
13 | CN(C)C(=O)c1c([N+](=O)[O-])cc([N+](=O)[O-])cc1[N+](=O)[O-] | inactive: 8.57%
14 | CCN(CC)CC(O)COC(=O)C(O)(c1ccccc1)C1CCCCC1 (stereo not given) | inactive: -1.03%
15 | COc1ccc(OP(C)(=O)Nc2ccc(Br)cc2)cc1 (stereo not given) | inactive: -0.896%
16 | CP(=O)(Oc1ccccc1)N1CCOC1=O (stereo not given) | inactive: 2.61%
17 | CCc1ccc(OP(C)(=O)Nc2cccnc2)cc1 (stereo not given) | inactive: 1.69%
18 | COc1ccccc1OP(C)(=O)Nc1c(C)n(C)n(-c2ccccc2)c1=O (stereo not given) | inactive: -0.792%
19 | O=C(OCCCN1CCCC1)C(O)(c1ccccc1)C1CCCCC1 (stereo not given) | inactive: -8.29%
20 | CP(=O)(Nc1ccc2c(c1)OCCO2)Oc1ccccc1 (stereo not given) | inactive: 0.0902%
21 | O=[N+]([O-])c1cc([N+](=O)[O-])c(C(F)(F)F)c([N+](=O)[O-])c1O | inactive: 1.59%
22 | Cc1ccccc1NP(C)(=O)Nc1ccccc1C | inactive: 2.04%
23 | CP(=O)(Nc1ccc(SC(F)(F)F)cc1)Oc1ccc(F)cc1 (stereo not given) | inactive: -4.83%

Row | SMILES | inhibition
24 | CCOP(C)(=S)SCC(=O)NC(C)(CC)C(=O)O (stereo not given) | inactive: 1.84%
25 | Cc1cc(-c2cccc3ccccc23)c(C)cn1.O=[N+]([O-])c1cc([N+](=O)[O-])c(O)c([N+](=O)[O-])c1 | inactive: -5.11%
26 | O=[N+]([O-])c1cc([N+](=O)[O-])c(NCC2CCS(=O)(=O)C2)c([N+](=O)[O-])c1 (stereo not given) | inactive: -2.96%
27 | O=[N+]([O-])c1ccc(OP2(=O)COCCO2)cc1 (stereo not given) | inactive: -4.83%
28 | Cc1c(C(c2ccc3c(c2)OCO3)c2c(C)n(C)n(-c3ccccc3)c2=O)c(=O)n(-c2ccccc2)n1C.O=[N+]([O-])c1cc([N+](=O)[O-])c(O)c([N+](=O)[O-])c1 | inactive: 2.31%
29 | COc1ccc(OP(C)(=O)Nc2cccc(Br)c2)cc1 (stereo not given) | inactive: 4.45%
30 | COc1ccc(NP(C)(=O)Oc2ccccc2OC)cc1 (stereo not given) | inactive: -3.21%
31 | CN(C)CCOC(=O)C(O)(c1ccccc1)C1CCCCC1 (stereo not given) | inactive: -2.55%
32 | CCN(CC)CCCOC(=O)C(O)(c1ccccc1)C1CCCCC1 (stereo not given) | inactive: -8.72%
33 | Cc1c([N+](=O)[O-])cc([N+](=O)[O-])c(Br)c1[N+](=O)[O-] | inactive: 3.9%
34 | O=[N+]([O-])c1cc([N+](=O)[O-])c(OC2CCCCC2O)c([N+](=O)[O-])c1 (stereo not given) | inactive: -0.443%
35 | CCCCCOc1ccc(NP(C)(=O)Oc2ccc(Cl)cc2Cl)cc1 (stereo not given) | inactive: 4.66%
36 | CP(=O)(Nc1ccccc1)Oc1ccc(F)cc1 (stereo not given) | inactive: 1.68%
37 | CCN(CC)CCCNc1ccccc1[N+](=O)[O-].O=[N+]([O-])c1cc([N+](=O)[O-])c(O)c([N+](=O)[O-])c1 | inactive: 7.08%
38 | COc1ccc(OP(C)(=O)Nc2ccc(SC(F)(F)F)cc2)cc1 (stereo not given) | inactive: -2.65%
39 | CCOC(=O)c1ccc(NP(C)(=O)Oc2ccc(F)cc2)cc1 (stereo not given) | inactive: -4.63%
40 | O=C(OCCN1CCN(CCOCc2ccccc2)CC1)C(O)(c1ccccc1)c1ccccc1 | inactive: -6.06%
41 | O=C(OC1CN2CCC1CC2)c1ccc([N+](=O)[O-])cc1 (stereo not given) | inactive: 7.45%
42 | COc1ccc2c(c1O)-c1c(O)c(OC)cc3c1[C@H](C2)[N+](C)(C)CC3.O=[N+]([O-])c1cc([N+](=O)[O-])c([O-])c([N+](=O)[O-])c1[O-] | inactive: -0.412%
43 | O=[N+]([O-])c1cc([N+](=O)[O-])c(Nc2ccc(Cl)cc2)c([N+](=O)[O-])c1 | inactive: -3.04%
44 | CC(C)c1ccc(OP(C)(=O)Nc2ccc(SC(F)(F)F)cc2)cc1 (stereo not given) | inactive: -2.15%
45 | CP(=O)(Nc1ccccc1F)Oc1ccccc1 (stereo not given) | inactive: 1.47%
